Results of unrelated studies side by side (data: NIAID ChemDB).

Shared fields: whole-cell or culture tests; species: HIV-2; endpoint: EC50

ECn: concentration that inhibits the pathogen or its effect by n%. An empty or dashed field is not shown. Lines come from different laboratories, so protocols vary.

structure	read by	cells	strain	result
CCCCCCCCCC(=O)Oc1ccc(COP(=O)(OCCC#N)OP(=O)(O)OC[C@@H]2C=C[C@H](n3cc(C)c(=O)[nH]c3=O)O2)cc1	syncytia / microscopy	CEM/TK-	ROD	2.8 µM
C[C@H](Cn1cnc2c(N(C)C)ncnc21)OCP(=O)(O)O	cytopathic effect / MTT	MT-4	ROD	0.4 ± 0.05 µg/mL
Cc1ccccc1C(C(N)=O)S(=O)c1cccc[n+]1[O-]	syncytia	CEM	ROD	>100 µg/mL
CCCCCCNP(=O)(OC[C@H]1O[C@@H](n2cc(C)c(=O)[nH]c2=O)C[C@@H]1N=[N+]=[N-])Oc1ccccc1	-	CEM(TK-) + CEM TK-	ROD	>8 µM
O=c1[nH]c(=O)n(Cc2cn(COCCO)nn2)cc1Br	cytopathic effect	MT-4	ROD	>100 µg/mL
Cc1ccc(C)c(C(Sc2cccc[n+]2[O-])c2ccccc2)c1	syncytia	CEM	ROD	>20 µg/mL
Nc1ccnc(OC[C@H]2CC[C@@H](CO)O2)n1	syncytia	CEM	ROD	>250 µM
Nc1nc(NC2CCCCC2)c2ncn(CCOCP(=O)(O)O)c2n1	cytopathic effect / MTT	CEM	ROD	>20 µg/mL
COC(=O)[C@@H](NP(=O)(OC[C@@H]1C=C[C@H](n2cc(C)c(=O)[nH]c2=O)O1)Oc1ccccc1)c1ccccc1	-	CEM + CEM TK-	-	4.5 µM
Cc1ccc[n+]([O-])c1S(=O)(=O)Cc1ccccc1	syncytia	CEM	ROD	>20 µg/mL
CC(=O)Oc1ccc(COP(=O)(OCc2ccc(OC(=O)c3ccc(C(F)(F)F)cc3)cc2)OP(=O)(O)OCC2C=C[C@H](n3cc(C)c(=O)[nH]c3=O)O2)cc1	syncytia	CEM/TK-	ROD	6.31 µM
O=[N+]([O-])c1ccc(CS(=O)(=O)c2cccc[n+]2[O-])cc1	syncytia	CEM	ROD	>4 µg/mL
CCCCCCCC/C=C\CCCCCCCC(=O)Oc1ccc(COP(=O)(OCc2ccc(OC(=O)CCCCCCC/C=C\CCCCCCCC)cc2)OP(=O)(O)OC[C@@H]2C=C[C@H](n3cc(C)c(=O)[nH]c3=O)O2)cc1	syncytia / microscopy	CEM/TK-	ROD	0.65 µM
Cc1ccc(C)c(C(Cl)S(=O)(=O)c2c(C)ccc[n+]2[O-])c1	syncytia	CEM	ROD	>100 µg/mL
CCCCCCCCCC(=O)Oc1ccc(COP(=O)(OCc2ccc(OC(C)=O)cc2)OP(=O)(O)OCC2C=C[C@H](n3cc(C)c(=O)[nH]c3=O)O2)cc1	syncytia	CEM/TK-	ROD	6.31 µM
COC(=O)C(C)NP(=O)(OC[C@@H]1C=C[C@H](n2cc(I)c(=O)[nH]c2=O)O1)Oc1ccccc1	syncytia	CEM + CEM/0	ROD	7 µM
COc1ccc(C(Cl)c2ccnc(Nc3ccc(C#N)cc3)n2)cc1	cytopathic effect	MT-4	ROD	33.6 µM
O=c1[nH]c(=O)n(Cc2cn(COCCO)nn2)cc1Cl	cytopathic effect	MT-4	ROD	>100 µg/mL
CCCCCCCCCCCC(=O)Oc1ccc(COP(=O)(OCc2ccc(OC(=O)CCCC)cc2)OP(=O)(O)OCC2C=C[C@H](n3cc(C)c(=O)[nH]c3=O)O2)cc1	syncytia	CEM/TK-	ROD	6.31 µM
Nc1cc(OC[C@H]2CC[C@@H](CO)O2)ncn1	syncytia	CEM	ROD	>250 µM
COc1cc(CS(=O)(=O)c2cccc[n+]2[O-])cc(OC)c1OC	syncytia	CEM	ROD	≥20 µg/mL
O=c1[nH]c(=O)n([C@H]2C=C[C@@H](CO)O2)cc1I	syncytia	CEM + CEM/0	ROD	>50 µM
C[C@H](C[n+]1c[nH]c2c(Nc3ccccc3)nc(N)nc21)OCP(=O)(O)O	cytopathic effect / MTT	CEM	ROD	12.5 ± 3.5 µg/mL
O=c1[nH]c(=O)n(Cc2cn(COCCO)nn2)cc1F	cytopathic effect	MT-4	ROD	>100 µg/mL
Cc1cn(C2OC(CO[Si](C)(C)C(C)(C)C)C3(OS(=O)(=O)C=C3N)C2O[Si](C)(C)C(C)(C)C)c(=O)n(CCCNC(=O)c2ccc(N=[N+]=[N-])cc2O)c1=O	syncytia	CEM	ROD	>50 µM
COC(=O)C(c1ccccc1C)S(=O)c1cccc[n+]1[O-]	syncytia	CEM	ROD	>20 µg/mL
Cc1ccc(C(Br)c2ccnc(Nc3ccc(C#N)cc3)n2)cc1	cytopathic effect	MT-4	ROD	31.5 µM
COc1ccc(OC)c(CS(=O)c2cccc[n+]2[O-])c1	syncytia	CEM	ROD	>100 µg/mL
CCC[C@H](NP(=O)(OC[C@@H]1C=C[C@H](n2cc(C)c(=O)[nH]c2=O)O1)Oc1ccccc1)C(=O)OC	-	CEM	-	1.1 µM
CC(c1ccc(S(C)(=O)=O)cc1)S(=O)c1cccc[n+]1[O-]	syncytia	CEM	ROD	>4 µg/mL
CCCCCCCCCCCC(=O)Oc1ccc(COP(=O)(OCc2ccc(OC(=O)CCCCCCCCCCC)cc2)OP(=O)(O)OC[C@@H]2C=C[C@H](n3cc(C)c(=O)[nH]c3=O)O2)cc1	syncytia / microscopy	CEM	ROD	0.35 µM
Cc1cn([C@H]2C=C[C@@H](CO)O2)c(=O)[nH]c1=O	-	CEM + CEM TK-	-	33 µM
CCCC(Sc1cccc[n+]1[O-])c1cc(C)ccc1C	syncytia	CEM	ROD	>4 µg/mL
CCCCCCCCCCCCCCCC(=O)Oc1ccc(COP(=O)(OCc2ccc(OC(=O)CCCCCCCCCCCCCCC)cc2)OP(=O)(O)OC[C@@H]2C=C[C@H](n3cc(C)c(=O)[nH]c3=O)O2)cc1	syncytia / microscopy	CEM/TK-	ROD	0.99 µM
CC(=O)OCCOCn1cc(Cn2ccc(=O)[nH]c2=O)nn1	cytopathic effect	MT-4	ROD	>100 µg/mL
COc1cc(OC[C@H]2CC[C@@H](CO)O2)nc(N)n1	syncytia	CEM	ROD	>50 µM
Cc1cn(C2OC(CO[Si](C)(C)C(C)(C)C)C3(OS(=O)(=O)C=C3N)C2O[Si](C)(C)C(C)(C)C)c(=O)n(/C=C/CO)c1=O	syncytia	CEM	ROD	>2 µM
N#Cc1ccc(Nc2nccc(C(Cl)c3cccc4ccccc34)n2)cc1	cytopathic effect	MT-4	ROD	11.3 µM
O=S(=O)(Cc1cccc(Br)c1)c1cccc[n+]1[O-]	syncytia	CEM	ROD	≥4 µg/mL
CN(C)c1nc(N)nc2c1ncn2CCOCP(=O)(O)O	cytopathic effect / MTT	CEM	ROD	0.8 µg/mL
CC(=O)OCCOCn1cc(Cn2cnc3c(N)ncnc32)nn1	cytopathic effect	MT-4	ROD	>100 µg/mL
Cc1cn(C2OC(CO[Si](C)(C)C(C)(C)C)C3(OS(=O)(=O)C=C3N)C2O[Si](C)(C)C(C)(C)C)c(=O)n(/C=C\CO)c1=O	trypan blue	MT-4	ROD	>25 µM
Nc1nc(OC[C@H]2CC[C@@H](COCc3ccccc3)O2)cc(OC[C@@H]2CC[C@H](COCc3ccccc3)O2)n1	syncytia	CEM	ROD	>10 µM
Nc1nc(NC2CC2)c2ncn(CCOCP(=O)(O)O)c2n1	cytopathic effect / MTT	CEM	ROD	0.16 µg/mL
Cc1cn([C@H]2C=C[C@@H](CO)O2)c(=O)[nH]c1=O	-	CEM + CEM/0	ROD	0.27 µM
Nc1nc(N)nc(OC[C@H]2CC[C@@H](CO)O2)n1	syncytia	CEM	ROD	>250 µM
CC(C)CCC[C@@H](C)[C@H]1CC[C@H]2[C@@H]3CC[C@H]4C[C@@H](CCC=C(c5cc(Cl)c(O)c(C(=O)O)c5)c5cc(Cl)c(O)c(C(=O)O)c5)CC[C@]4(C)[C@H]3CC[C@]12C	cytopathic effect / MTT	MT-4	ROD	4 µM
CC(C)(C)c1ccc(C(Cl)c2ccnc(Nc3ccc(C#N)cc3)n2)cc1	cytopathic effect	MT-4	ROD	32.9 µM
c1ccc(COC[C@H]2CC[C@@H](COc3cc(OC[C@H]4CC[C@@H](COCc5ccccc5)O4)ncn3)O2)cc1	syncytia	CEM	ROD	>10 µM
O=S(=O)(Cc1ccccc1)c1c(Cl)ccc[n+]1[O-]	syncytia	CEM	ROD	>0.8 µg/mL
COC(=O)C(C)NP(=O)(OC[C@@H]1C=C[C@H](n2cc(Cl)c(=O)[nH]c2=O)O1)Oc1ccccc1	syncytia	CEM + CEM/0	ROD	0.95 µM

The first 6 rows once more:

{"structure": "CCCCCCCCCC(=O)Oc1ccc(COP(=O)(OCCC#N)OP(=O)(O)OC[C@@H]2C=C[C@H](n3cc(C)c(=O)[nH]c3=O)O2)cc1", "read by": "syncytia / microscopy", "cells": "CEM/TK-", "strain": "ROD", "result": "2.8 µM"}
{"structure": "C[C@H](Cn1cnc2c(N(C)C)ncnc21)OCP(=O)(O)O", "read by": "cytopathic effect / MTT", "cells": "MT-4", "strain": "ROD", "result": "0.4 ± 0.05 µg/mL"}
{"structure": "Cc1ccccc1C(C(N)=O)S(=O)c1cccc[n+]1[O-]", "read by": "syncytia", "cells": "CEM", "strain": "ROD", "result": ">100 µg/mL"}
{"structure": "CCCCCCNP(=O)(OC[C@H]1O[C@@H](n2cc(C)c(=O)[nH]c2=O)C[C@@H]1N=[N+]=[N-])Oc1ccccc1", "cells": "CEM(TK-) + CEM TK-", "strain": "ROD", "result": ">8 µM"}
{"structure": "O=c1[nH]c(=O)n(Cc2cn(COCCO)nn2)cc1Br", "read by": "cytopathic effect", "cells": "MT-4", "strain": "ROD", "result": ">100 µg/mL"}
{"structure": "Cc1ccc(C)c(C(Sc2cccc[n+]2[O-])c2ccccc2)c1", "read by": "syncytia", "cells": "CEM", "strain": "ROD", "result": ">20 µg/mL"}